Results on 16 compounds are retold here after PMC3210602, “Design of New α-Conotoxins: From Computer Modeling to Synthesis of Potent Cholinergic Compounds” (2011).

Sequences of proteins named here, by UniProt entry; tags and fusion partners are left off. Residues count along the entry.
UniProt P58154, 20-229 limits assumed: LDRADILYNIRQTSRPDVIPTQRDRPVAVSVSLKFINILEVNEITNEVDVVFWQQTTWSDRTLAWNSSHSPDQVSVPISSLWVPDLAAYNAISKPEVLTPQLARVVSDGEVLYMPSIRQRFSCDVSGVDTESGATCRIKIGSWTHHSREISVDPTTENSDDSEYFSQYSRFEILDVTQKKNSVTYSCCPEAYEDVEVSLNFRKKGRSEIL
UniProt P36544, 23-502 limits assumed: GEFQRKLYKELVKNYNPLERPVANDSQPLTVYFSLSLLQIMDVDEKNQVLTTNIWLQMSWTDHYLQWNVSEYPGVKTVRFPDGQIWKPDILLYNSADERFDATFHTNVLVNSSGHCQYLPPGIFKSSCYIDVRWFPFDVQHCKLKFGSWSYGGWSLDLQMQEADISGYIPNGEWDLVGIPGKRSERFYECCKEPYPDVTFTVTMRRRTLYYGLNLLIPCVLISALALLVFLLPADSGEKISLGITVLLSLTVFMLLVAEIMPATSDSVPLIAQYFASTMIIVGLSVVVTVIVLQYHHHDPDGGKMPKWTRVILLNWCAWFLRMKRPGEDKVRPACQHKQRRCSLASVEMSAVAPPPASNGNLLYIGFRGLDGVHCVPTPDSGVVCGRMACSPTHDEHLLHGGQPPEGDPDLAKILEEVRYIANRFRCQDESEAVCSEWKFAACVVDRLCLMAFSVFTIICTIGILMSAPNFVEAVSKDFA
UniProt Q8WSF8, 18-236 limits assumed: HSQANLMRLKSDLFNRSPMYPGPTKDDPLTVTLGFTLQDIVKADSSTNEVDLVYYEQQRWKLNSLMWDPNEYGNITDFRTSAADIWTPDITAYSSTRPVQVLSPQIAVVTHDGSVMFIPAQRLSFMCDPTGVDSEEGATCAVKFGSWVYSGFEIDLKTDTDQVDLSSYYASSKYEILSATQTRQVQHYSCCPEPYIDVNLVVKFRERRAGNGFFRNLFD

In experiment [1] the target is L. stagnalis AChBP (Lymnaea stagnalis, UniProt P58154).
Experiment [2] concerns the target T1, human α7 nAChR (Homo sapiens, UniProt P36544).
In experiment [3] the target is T1, human α7 nAChR. Briefly: Competition radioligand assay with [125I]-PnIA[L5R, A10L, D14R], human α7 nAChR in GH4C1 cells. The settings on record: read-out: IC50 in competition with [125I]-PnIA[L5R, A10L, D14R], mean ± s.e.m., n = 3, radioligand 180 nM.
In experiment [4] the target is T2, A. californica AChBP (Aplysia californica, UniProt Q8WSF8).
Experiment [5] concerns the target T2, A. californica AChBP. The source holds these as a separate data set.
Experiment [6] concerns the target T2, A. californica AChBP. As to conditions: read-out: IC50 in competition with [125I]-αBgt; cited from earlier work.

Like-named read-outs stand apart in the source and are kept apart here.

A word on the IC50: it is the concentration that inhibits the measured activity by half. Regarding `CC(C)C[C@@H]1NC(=O)[C@H](C)NC(=O)[C@@H]2CSSC[C@H](NC(=O)CN)C(=O)N[C@@H](CSSC[C@@H](C(N)=O)NC(=O)[C@H](Cc3ccc(O)cc3)NC(=O)[C@H](CCCCN)NC(=O)[C@@H]3CCCN3C(=O)[C@H](CC(N)=O)NC(=O)[C@H](CC(N)=O)NC1=O)C(=O)N[C@@H](CO)C(=O)N[C@@H](CC(C)C)C(=O)N1CCC[C@H]1C(=O)N1CCC[C@H]1C(=O)N2`, the half-maximal inhibitory concentration (IC50) in experiment [1] came to 0.0082 µM; in experiment [2], 7.2 µM; in experiment [3] it was 1.8 µM.
On to `CC(C)C[C@@H]1NC(=O)[C@H](C)NC(=O)[C@@H]2CSSC[C@H](NC(=O)CN)C(=O)N[C@@H](CSSC[C@@H](C(N)=O)NC(=O)[C@H](Cc3ccc(O)cc3)NC(=O)[C@H](CC(=O)O)NC(=O)[C@@H]3CCCN3C(=O)[C@H](CC(N)=O)NC(=O)[C@H](CC(N)=O)NC1=O)C(=O)N[C@@H](CO)C(=O)N[C@@H](CC(=O)O)C(=O)N1CCC[C@H]1C(=O)N[C@@H](CCCNC(=N)N)C(=O)N2`, for which the IC50 is 38 µM in experiment [1], 0.051 µM in experiment [4] and over 100 µM in experiment [2].
In the same order, the values of `CC(C)C[C@@H]1NC(=O)[C@H](C)NC(=O)[C@@H]2CSSC[C@H](NC(=O)CN)C(=O)N[C@@H](CSSC[C@@H](C(N)=O)NC(=O)[C@H](Cc3ccc(O)cc3)NC(=O)[C@H](CC(=O)O)NC(=O)[C@@H]3CCCN3C(=O)[C@H](CC(N)=O)NC(=O)[C@H](CC(N)=O)NC1=O)C(=O)N[C@@H](CO)C(=O)N[C@@H](CC(=O)O)C(=O)N1CCC[C@H]1C(=O)N1CCC[C@H]1C(=O)N2` are 35 µM, 5.2 µM and over 100 µM.
With `CC(C)C[C@@H]1NC(=O)[C@H](C)NC(=O)[C@@H]2CSSC[C@H](NC(=O)CN)C(=O)N[C@@H](CSSC[C@@H](C(N)=O)NC(=O)[C@H](Cc3ccc(O)cc3)NC(=O)[C@H](CC(=O)O)NC(=O)[C@@H]3CCCN3C(=O)[C@H](CC(N)=O)NC(=O)[C@H](CC(N)=O)NC1=O)C(=O)N[C@@H](CO)C(=O)N[C@@H](CCCNC(=N)N)C(=O)N1CCC[C@H]1C(=O)N1CCC[C@H]1C(=O)N2`, the 50% inhibitory concentration (IC50) came to 0.18 µM in experiment [1], 0.305 µM in experiment [4] and 12 µM in experiment [2].
In the same order, the values of `CC(C)C[C@@H]1NC(=O)[C@H](C)NC(=O)[C@@H]2CSSC[C@H](NC(=O)CN)C(=O)N[C@@H](CSSC[C@@H](C(N)=O)NC(=O)[C@H](Cc3c[nH]c4ccccc34)NC(=O)[C@H](CCCNC(=N)N)NC(=O)[C@@H]3CCCN3C(=O)[C@H](CC(N)=O)NC(=O)[C@H](CC(N)=O)NC1=O)C(=O)N[C@@H](CO)C(=O)N[C@@H](Cc1ccc(O)cc1)C(=O)N[C@@H](CCCNC(=N)N)C(=O)N[C@@H](CCCNC(=N)N)C(=O)N2` are 10 µM, 20 µM and 19 µM.
Regarding `C[C@@H]1NC(=O)[C@H](C)NC(=O)[C@@H]2CSSC[C@H](NC(=O)CN)C(=O)N[C@@H](CSSC[C@@H](C(N)=O)NC(=O)[C@H](Cc3ccc(O)cc3)NC(=O)[C@H](CC(=O)O)NC(=O)[C@@H]3CCCN3C(=O)[C@H](CC(N)=O)NC(=O)[C@H](CC(N)=O)NC1=O)C(=O)N[C@@H](CO)C(=O)N[C@@H](Cc1c[nH]cn1)C(=O)N1CCC[C@H]1C(=O)N1CCC[C@H]1C(=O)N2`, the figures for the IC50 in experiment [1] and in experiment [2] were 0.22 µM and 26 µM, respectively.
Consider `CC(C)[C@@H]1NC(=O)[C@H](C)NC(=O)[C@@H]2CSSC[C@H](NC(=O)CN)C(=O)N[C@@H](CSSC[C@@H](C(N)=O)NC(=O)[C@H](Cc3ccc(O)cc3)NC(=O)[C@H](CC(=O)O)NC(=O)[C@@H]3CCCN3C(=O)[C@H](CC(N)=O)NC(=O)[C@H](CC(N)=O)NC1=O)C(=O)N[C@@H](CO)C(=O)N[C@@H](CC(=O)O)C(=O)N1CCC[C@H]1C(=O)N[C@@H](CCCNC(=N)N)C(=O)N2`, for which the IC50 in experiment [1] was 6.4 µM; in experiment [4] it was 0.045 µM; in experiment [2], over 100 µM.
Take `CC(C)C[C@@H]1NC(=O)[C@H](C)NC(=O)[C@@H]2CSSC[C@H](NC(=O)CN)C(=O)N[C@@H](CSSC[C@@H](C(N)=O)NC(=O)[C@H](Cc3ccc(O)cc3)NC(=O)[C@H](CC(=O)O)NC(=O)[C@@H]3CCCN3C(=O)[C@H](CC(N)=O)NC(=O)[C@H](CC(N)=O)NC1=O)C(=O)N[C@@H](CO)C(=O)N[C@@H](CCCNC(=N)N)C(=O)N1CCC[C@H]1C(=O)N[C@@H](CC(=O)O)C(=O)N2`: the IC50 is 56 µM in experiment [1], 28 µM in experiment [4] and over 100 µM in experiment [2].
In the same order, the values of `CC(C)C[C@@H]1NC(=O)[C@H](C)NC(=O)[C@@H]2CSSC[C@H](NC(=O)CN)C(=O)N[C@@H](CSSC[C@@H](C(N)=O)NC(=O)[C@H](Cc3ccc(O)cc3)NC(=O)[C@H](CCCNC(=N)N)NC(=O)[C@@H]3CCCN3C(=O)[C@H](CC(N)=O)NC(=O)[C@H](CC(N)=O)NC1=O)C(=O)N[C@@H](CO)C(=O)N[C@@H](CCCNC(=N)N)C(=O)N1CCC[C@H]1C(=O)N[C@@H](CC(=O)O)C(=O)N2` are 4.1 µM, 3.2 µM and 72 µM.
In the same order, the values of `C[C@@H]1NC(=O)[C@H](C)NC(=O)[C@@H]2CSSC[C@H](NC(=O)CN)C(=O)N[C@@H](CSSC[C@@H](C(N)=O)NC(=O)[C@H](Cc3ccc(O)cc3)NC(=O)[C@H](CCCNC(=N)N)NC(=O)[C@@H]3CCCN3C(=O)[C@H](CC(N)=O)NC(=O)[C@H](CC(N)=O)NC1=O)C(=O)N[C@@H](CO)C(=O)N[C@@H](Cc1c[nH]cn1)C(=O)N1CCC[C@H]1C(=O)N1CCC[C@H]1C(=O)N2` are 2.9 µM, 1.4 µM and 21 µM.
In the same order, the values of `CC(C)C[C@@H]1NC(=O)[C@H](C)NC(=O)[C@@H]2CSSC[C@H](NC(=O)CN)C(=O)N[C@@H](CSSC[C@@H](C(N)=O)NC(=O)[C@H](Cc3ccc(O)cc3)NC(=O)[C@H](CC(=O)O)NC(=O)[C@@H]3CCCN3C(=O)[C@H](CC(N)=O)NC(=O)[C@H](CC(N)=O)NC1=O)C(=O)N[C@@H](CO)C(=O)N[C@@H](CC(C)C)C(=O)N1CCC[C@H]1C(=O)N[C@@H](CCCNC(=N)N)C(=O)N2` are over 100 µM, 1.25 µM and over 100 µM.
Regarding `CC(C)C[C@@H]1NC(=O)[C@H](C)NC(=O)[C@@H]2CSSC[C@H](NC(=O)CN)C(=O)N[C@@H](CSSC[C@@H](C(N)=O)NC(=O)[C@H](Cc3ccc(O)cc3)NC(=O)[C@H](CC(=O)O)NC(=O)[C@@H]3CCCN3C(=O)[C@H](CC(N)=O)NC(=O)[C@H](CC(N)=O)NC1=O)C(=O)N[C@@H](CO)C(=O)N[C@@H](CC(C)C)C(=O)N1CCC[C@H]1C(=O)N[C@@H](CC(=O)O)C(=O)N2`, the results for the IC50 in experiment [1], in experiment [4] and in experiment [2] were over 100 µM, 63 µM and over 100 µM, respectively.
On to `C[C@@H]1NC(=O)[C@@H]2CSSC[C@H](NC(=O)CN)C(=O)N[C@@H](CSSC[C@@H](C(N)=O)NC(=O)[C@H](CCCNC(=N)N)NC(=O)[C@H](Cc3c[nH]c4ccccc34)NC1=O)C(=O)N[C@@H](CO)C(=O)N[C@@H](CC(=O)O)C(=O)N1CCC[C@H]1C(=O)N[C@@H](CCCNC(=N)N)C(=O)N2`, for which the half-inhibitory concentration (IC50) in experiment [5] was 0.00084 µM; in experiment [6], 0.033 µM.
Turning to `C[C@@H]1NC(=O)[C@@H]2CCCN2C(=O)[C@H](CC(N)=O)NC(=O)[C@@H]2CSSC[C@@H](C(N)=O)NC(=O)[C@H](CO)NC(=O)[C@H](Cc3ccc(O)cc3)NC(=O)[C@H](Cc3c[nH]cn3)NC(=O)[C@H](CCCNC(=N)N)NC(=O)CNC(=O)[C@H](CSSC[C@H](NC(=O)[C@@H](N)CCC(=O)O)C(=O)N2)NC1=O`, the IC50 was over 1 µM in experiment [5] and 25.5 µM in experiment [6].
As for `CC(C)C[C@@H]1NC(=O)[C@H](C)NC(=O)[C@@H]2CSSC[C@H](NC(=O)CN)C(=O)N[C@@H](CSSC[C@@H](C(N)=O)NC(=O)[C@H](Cc3ccc(O)cc3)NC(=O)[C@H](CCCNC(=N)N)NC(=O)[C@@H]3CCCN3C(=O)[C@H](CC(N)=O)NC(=O)[C@H](CC(N)=O)NC1=O)C(=O)N[C@@H](CO)C(=O)N[C@@H](CCCNC(=N)N)C(=O)N1CCC[C@H]1C(=O)N1CCC[C@H]1C(=O)N2`, the half-inhibitory concentration (IC50) in experiment [1] amounted to 0.43 µM; in experiment [4], 1.4 µM; in experiment [2] it was 0.67 µM; in experiment [3], 0.06 µM.
Turning to `CC(C)C[C@@H]1NC(=O)[C@H](C)NC(=O)[C@@H]2CSSC[C@H](NC(=O)CN)C(=O)N[C@@H](CSSC[C@@H](C(N)=O)NC(=O)[C@H](Cc3ccc(O)cc3)NC(=O)[C@H](CCCNC(=N)N)NC(=O)[C@@H]3CCCN3C(=O)[C@H](CC(N)=O)NC(=O)[C@H](CC(N)=O)NC1=O)C(=O)N[C@@H](CO)C(=O)N[C@@H](CC(=O)O)C(=O)N1CCC[C@H]1C(=O)N[C@@H](CCCNC(=N)N)C(=O)N2`, the IC50 in experiment [1] amounted to 1.2 µM; in experiment [4] it was 0.046 µM; in experiment [2] it was 23 µM.
